Results on 3 substances are retold here after US20090281028A1.

For assay [1], the target named is human Kv1.1 channel (human) (UniProt Q09470). Description: cell-based or functional assay.
Assay [2] has as its target human Kv1.3 channel (human) (UniProt P22001). Description: cell-based or functional assay.

The substance “Fc-L10-OSK1[K7S, E16K, K20D] (Fc fusion)” had a hKv1.1: IC50 [pM], block of current, whole cell patch clamp in assay [1] of 10000 pM.

“CHO-derived Fc-L10-ShK[1-35] R1Q (Fc fusion)” came in with a Kv1.3 IC50 by IWQ (nM), IonWorks planar patch clamp, CHO/Kv1.3 cells in assay [2] of 2.2 nM.

As to Fc-L10-OSK1[K7S] (Fc fusion), in assay [1], the fold change in Kv1.1/Kv1.3 selectivity against Fc-L10-OSK1 worked out at 1.3 fold and the hKv1.1: IC50 [pM], block of current, whole cell patch clamp stood at 100000 pM. Moreover, in assay [2], the fold change in potency against Fc-L10-OSK1 worked out at 2 fold; the fold loss of potency (IC50 of Kv1.3 current block) against synthetic OSK1 was 10 fold; the hKv1.3: IC50 [pM], block of current, whole cell patch clamp is 372 pM; the selectivity ratio hKv1.1/hKv1.3 (IC50) was 269 fold.
